# Results taken from US20100129348A1, “METHOD FOR […] INHIBITING THE ACTIVITY OF ALPHA 1B SUBUNIT OF N-TYPE CALCIUM CHANNEL” (Korea Institute of Science and Technology, priority 2002, published 2010).
# Amino acid sequences for entries named in this document (tags omitted). Residues count along the entry.
# UniProt O55017, whole entry: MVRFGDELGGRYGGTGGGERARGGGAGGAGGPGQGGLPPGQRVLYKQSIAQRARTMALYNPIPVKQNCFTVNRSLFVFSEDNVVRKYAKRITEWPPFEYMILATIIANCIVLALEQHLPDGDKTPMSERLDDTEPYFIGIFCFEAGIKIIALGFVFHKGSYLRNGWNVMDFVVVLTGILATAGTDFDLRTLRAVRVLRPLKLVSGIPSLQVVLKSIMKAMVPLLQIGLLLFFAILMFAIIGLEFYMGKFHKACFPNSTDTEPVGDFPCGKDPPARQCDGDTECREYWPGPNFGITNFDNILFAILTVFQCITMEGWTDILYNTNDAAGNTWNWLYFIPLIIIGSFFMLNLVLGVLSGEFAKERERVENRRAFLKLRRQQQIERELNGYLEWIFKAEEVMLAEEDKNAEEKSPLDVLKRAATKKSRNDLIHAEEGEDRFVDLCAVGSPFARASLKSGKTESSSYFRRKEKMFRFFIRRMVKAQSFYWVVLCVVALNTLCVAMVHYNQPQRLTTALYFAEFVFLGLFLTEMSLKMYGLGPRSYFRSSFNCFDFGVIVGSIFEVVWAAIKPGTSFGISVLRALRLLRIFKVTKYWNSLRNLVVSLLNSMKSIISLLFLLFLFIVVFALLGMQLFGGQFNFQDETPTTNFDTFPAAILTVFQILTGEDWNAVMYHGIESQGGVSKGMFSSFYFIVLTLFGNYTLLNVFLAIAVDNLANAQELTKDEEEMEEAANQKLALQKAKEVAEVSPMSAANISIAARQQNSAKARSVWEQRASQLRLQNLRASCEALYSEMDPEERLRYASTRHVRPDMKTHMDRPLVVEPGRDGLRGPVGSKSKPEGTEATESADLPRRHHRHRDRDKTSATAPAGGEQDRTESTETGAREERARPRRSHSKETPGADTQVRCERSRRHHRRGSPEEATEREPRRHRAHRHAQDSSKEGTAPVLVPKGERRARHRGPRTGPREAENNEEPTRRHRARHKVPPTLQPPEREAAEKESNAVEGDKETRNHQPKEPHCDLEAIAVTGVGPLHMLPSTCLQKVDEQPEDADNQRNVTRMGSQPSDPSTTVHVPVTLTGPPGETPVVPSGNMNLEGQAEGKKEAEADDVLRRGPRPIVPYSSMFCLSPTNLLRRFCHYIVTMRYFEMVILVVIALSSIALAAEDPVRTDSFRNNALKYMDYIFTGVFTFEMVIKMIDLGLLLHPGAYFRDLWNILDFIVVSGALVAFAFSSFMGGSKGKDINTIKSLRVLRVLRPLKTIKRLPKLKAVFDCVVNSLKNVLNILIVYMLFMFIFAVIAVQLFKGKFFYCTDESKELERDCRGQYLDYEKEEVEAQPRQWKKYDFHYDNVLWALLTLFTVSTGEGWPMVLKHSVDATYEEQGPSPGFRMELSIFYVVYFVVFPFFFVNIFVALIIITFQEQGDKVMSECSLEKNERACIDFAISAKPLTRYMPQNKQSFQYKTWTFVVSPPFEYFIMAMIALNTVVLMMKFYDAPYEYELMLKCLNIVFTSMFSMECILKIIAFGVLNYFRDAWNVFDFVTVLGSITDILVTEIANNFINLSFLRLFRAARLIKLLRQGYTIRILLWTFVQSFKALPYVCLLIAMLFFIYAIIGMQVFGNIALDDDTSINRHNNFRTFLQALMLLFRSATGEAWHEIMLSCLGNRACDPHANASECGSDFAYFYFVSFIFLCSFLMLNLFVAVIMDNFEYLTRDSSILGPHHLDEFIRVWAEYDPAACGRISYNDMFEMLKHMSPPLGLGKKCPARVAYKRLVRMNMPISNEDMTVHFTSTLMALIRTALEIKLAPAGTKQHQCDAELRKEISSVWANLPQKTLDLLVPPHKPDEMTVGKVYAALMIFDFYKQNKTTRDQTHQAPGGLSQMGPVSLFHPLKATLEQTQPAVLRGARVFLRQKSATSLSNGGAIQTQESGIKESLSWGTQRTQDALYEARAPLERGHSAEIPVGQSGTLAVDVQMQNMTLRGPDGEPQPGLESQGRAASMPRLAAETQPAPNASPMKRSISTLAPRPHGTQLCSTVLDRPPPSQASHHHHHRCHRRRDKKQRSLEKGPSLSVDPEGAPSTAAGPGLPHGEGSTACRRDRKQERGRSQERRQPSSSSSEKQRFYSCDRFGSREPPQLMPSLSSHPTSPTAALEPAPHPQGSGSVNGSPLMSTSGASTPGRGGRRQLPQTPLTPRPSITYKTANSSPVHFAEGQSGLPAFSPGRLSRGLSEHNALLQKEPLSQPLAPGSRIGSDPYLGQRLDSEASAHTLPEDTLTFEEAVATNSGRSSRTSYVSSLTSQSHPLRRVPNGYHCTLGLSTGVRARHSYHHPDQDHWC
# UniProt O08532, 25-956 partner limits assumed: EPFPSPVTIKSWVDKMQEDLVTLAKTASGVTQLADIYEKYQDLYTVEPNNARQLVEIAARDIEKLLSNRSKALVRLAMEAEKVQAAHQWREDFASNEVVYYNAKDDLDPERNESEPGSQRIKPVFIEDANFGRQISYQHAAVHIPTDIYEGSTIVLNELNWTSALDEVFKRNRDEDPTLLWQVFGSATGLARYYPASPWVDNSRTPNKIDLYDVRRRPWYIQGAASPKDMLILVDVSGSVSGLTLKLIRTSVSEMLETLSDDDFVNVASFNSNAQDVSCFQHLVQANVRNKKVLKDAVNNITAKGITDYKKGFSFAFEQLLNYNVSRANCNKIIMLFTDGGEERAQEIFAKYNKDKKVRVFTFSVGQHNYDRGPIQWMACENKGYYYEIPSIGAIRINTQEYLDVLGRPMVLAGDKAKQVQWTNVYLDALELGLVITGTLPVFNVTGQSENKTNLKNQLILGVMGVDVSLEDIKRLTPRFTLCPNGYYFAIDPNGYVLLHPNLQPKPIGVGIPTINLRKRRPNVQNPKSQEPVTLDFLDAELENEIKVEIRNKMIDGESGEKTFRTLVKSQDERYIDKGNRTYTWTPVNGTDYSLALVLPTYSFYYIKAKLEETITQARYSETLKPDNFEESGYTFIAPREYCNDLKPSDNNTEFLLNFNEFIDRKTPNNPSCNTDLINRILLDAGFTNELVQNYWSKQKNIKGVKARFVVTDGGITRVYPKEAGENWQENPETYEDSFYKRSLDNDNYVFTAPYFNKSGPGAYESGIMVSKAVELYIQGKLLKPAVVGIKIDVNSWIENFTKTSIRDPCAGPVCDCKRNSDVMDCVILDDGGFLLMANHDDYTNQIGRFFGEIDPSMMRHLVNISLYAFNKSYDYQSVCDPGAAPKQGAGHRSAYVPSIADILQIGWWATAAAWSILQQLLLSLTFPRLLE
# UniProt O08532, 957-1103 partner limits assumed: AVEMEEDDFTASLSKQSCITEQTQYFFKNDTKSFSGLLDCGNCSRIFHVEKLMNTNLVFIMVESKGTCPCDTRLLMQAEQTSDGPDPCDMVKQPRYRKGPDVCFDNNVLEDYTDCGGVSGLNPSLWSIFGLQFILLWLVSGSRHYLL
# UniProt P54285, whole entry partner: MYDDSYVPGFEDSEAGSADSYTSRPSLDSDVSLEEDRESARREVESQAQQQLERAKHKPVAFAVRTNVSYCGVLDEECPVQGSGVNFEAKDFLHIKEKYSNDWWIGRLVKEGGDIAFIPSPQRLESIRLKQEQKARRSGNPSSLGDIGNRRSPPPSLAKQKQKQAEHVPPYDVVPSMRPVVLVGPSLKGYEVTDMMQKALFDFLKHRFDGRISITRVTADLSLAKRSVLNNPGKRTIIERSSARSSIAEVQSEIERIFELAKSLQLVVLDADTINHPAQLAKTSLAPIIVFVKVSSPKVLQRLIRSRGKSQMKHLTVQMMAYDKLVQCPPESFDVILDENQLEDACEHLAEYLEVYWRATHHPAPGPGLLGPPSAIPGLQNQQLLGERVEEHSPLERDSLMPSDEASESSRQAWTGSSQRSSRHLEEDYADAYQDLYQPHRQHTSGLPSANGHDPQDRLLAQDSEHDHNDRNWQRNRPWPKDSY
# Target: T1, alpha 1B subunit of N-type Ca2+ channel (Mus musculus, UniProt O55017)
# T1 construct: F1 wild-type male mice were anesthetized with avertin; from tissue; host or cells: dorsal raphe nucleus of living F1 (C57BL/6J x 129S4/SvJae) wild-type male mice
# Design: species or system mice
# Details: in vivo
substance,measurement,value
ω-conotoxin GVIA,immobility in the forced swimming test,significantly reduced immobility
